Patent publication US10149812B2

Sequences of proteins named here, by UniProt entry; tags and fusion partners are left off.
UniProt P15390, whole entry: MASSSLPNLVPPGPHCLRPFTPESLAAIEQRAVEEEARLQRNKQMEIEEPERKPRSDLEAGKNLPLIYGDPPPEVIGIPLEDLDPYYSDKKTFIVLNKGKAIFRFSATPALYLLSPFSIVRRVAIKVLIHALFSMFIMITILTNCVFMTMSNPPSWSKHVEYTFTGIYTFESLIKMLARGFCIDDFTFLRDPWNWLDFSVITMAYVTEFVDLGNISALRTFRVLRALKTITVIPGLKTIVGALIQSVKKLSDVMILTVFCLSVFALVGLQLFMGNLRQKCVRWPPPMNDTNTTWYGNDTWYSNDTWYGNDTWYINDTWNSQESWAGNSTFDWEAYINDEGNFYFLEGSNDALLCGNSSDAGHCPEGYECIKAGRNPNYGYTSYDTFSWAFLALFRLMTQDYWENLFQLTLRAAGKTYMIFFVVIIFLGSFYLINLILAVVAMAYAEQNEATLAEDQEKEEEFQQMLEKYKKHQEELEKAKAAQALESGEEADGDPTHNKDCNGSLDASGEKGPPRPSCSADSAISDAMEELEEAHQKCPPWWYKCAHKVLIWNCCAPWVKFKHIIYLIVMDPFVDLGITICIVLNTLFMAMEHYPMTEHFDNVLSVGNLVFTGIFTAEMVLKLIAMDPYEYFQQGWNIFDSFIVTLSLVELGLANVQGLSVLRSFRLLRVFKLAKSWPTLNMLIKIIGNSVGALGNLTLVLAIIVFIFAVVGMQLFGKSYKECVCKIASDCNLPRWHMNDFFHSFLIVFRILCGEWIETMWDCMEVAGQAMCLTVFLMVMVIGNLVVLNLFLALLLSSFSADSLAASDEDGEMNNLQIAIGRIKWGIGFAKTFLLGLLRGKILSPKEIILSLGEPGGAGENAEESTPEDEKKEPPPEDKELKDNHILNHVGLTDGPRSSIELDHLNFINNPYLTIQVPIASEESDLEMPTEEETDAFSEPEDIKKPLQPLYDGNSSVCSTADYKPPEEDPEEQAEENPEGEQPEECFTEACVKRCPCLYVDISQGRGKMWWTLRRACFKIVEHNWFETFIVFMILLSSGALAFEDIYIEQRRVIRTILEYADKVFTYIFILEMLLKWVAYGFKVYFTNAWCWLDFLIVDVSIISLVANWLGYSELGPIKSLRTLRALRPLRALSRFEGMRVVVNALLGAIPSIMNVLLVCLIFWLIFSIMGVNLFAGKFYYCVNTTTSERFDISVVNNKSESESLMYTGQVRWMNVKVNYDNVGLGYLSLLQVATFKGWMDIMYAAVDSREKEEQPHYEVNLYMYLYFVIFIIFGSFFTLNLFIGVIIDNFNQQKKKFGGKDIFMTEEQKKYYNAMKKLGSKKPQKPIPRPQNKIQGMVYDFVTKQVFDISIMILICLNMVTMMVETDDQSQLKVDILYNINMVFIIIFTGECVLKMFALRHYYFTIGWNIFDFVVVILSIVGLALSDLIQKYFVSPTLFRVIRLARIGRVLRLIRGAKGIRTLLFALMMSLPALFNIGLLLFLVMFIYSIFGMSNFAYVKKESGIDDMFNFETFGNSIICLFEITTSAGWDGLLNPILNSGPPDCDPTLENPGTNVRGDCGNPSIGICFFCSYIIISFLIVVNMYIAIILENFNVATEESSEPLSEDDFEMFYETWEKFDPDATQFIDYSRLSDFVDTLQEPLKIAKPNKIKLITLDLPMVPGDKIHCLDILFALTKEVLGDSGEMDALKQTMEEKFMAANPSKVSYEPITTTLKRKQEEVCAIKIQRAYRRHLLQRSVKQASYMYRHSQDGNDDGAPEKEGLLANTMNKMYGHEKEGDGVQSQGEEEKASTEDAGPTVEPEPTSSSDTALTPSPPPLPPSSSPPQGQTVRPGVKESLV

Assays:
[1] = molecular target: rat skeletal muscle Na channel a subunit (μ1, Nav1.4) (Rattus norvegicus, UniProt P15390); assay: Whole-cell patch-clamp sodium current recordings in HEK 293 cells stably expressing Nav1.4
[2] = system: crow's feet and forehead wrinkles; assay: Quantification of the anti-wrinkles effect on humans, in vivo fringe projection, double-blind active versus placebo; conditions: composition 0.6 mg/kg, topical
[3] = system: crow's foot wrinkles; assay: In vivo clinical evaluation by one expert of main wrinkle depth (modified Bazin's scale); conditions: T+14 days

## pGlu-Gly-Cys-Cys-Asn-Gly-Pro-Lys-Gly-Cys-Ser-Ser-Lys-Trp-Cys-Arg-Asp-His-Ala-Arg-Cys-Cys-amide
[1]; 1 microM
  remaining sodium flux through expressed Nav1.4 channels: less than 4%
[1]; HEK 293 cells expressing Nav1.4, mean
  Onsets (Block of NaV1.4 at 1 microM): 266
[2]
  reduction against placebo for SA parameters: more than 8%
[3]; Mean, CnIIIC 2.5 μM 2 times/day, T0 mean 4.291
  CFW-Gr C14 (crow's foot wrinkle grade, scale 0 to 8): 4.055
[3]; Mean, CnIIIC 2.5 μM 2 times/day, grade out of 8
  CFW-Gr CdT (evolution of grade score Tn-T0): −0.236
[3]; Median
  CFW-Gr CdT (evolution of grade score Tn-T0): −0.200
[3]; Median, T0 median 4.400
  CFW-Gr C14 (crow's foot wrinkle grade, scale 0 to 8): 4.400
[3]; 6 subjects out of 11
  subjects showing an improvement in the crow's foot wrinkles grade: 55 % of the panel
